A mixed list of measured activities; the numbers were collected in NIAID ChemDB.

Common to all: tests in culture; organism: Aspergillus niger

MIC50, MIC90 and the like: level of inhibition, or share of isolates inhibited. Blank or dashed fields: not listed here. Neighbouring rows are from separate reports.

smiles | read by | read-out | strain or isolate | value
Cc1cc(Cl)[nH]c2ccc3c(=O)c(C(=O)NN4C(=O)C(Cl)C4c4cc([N+](=O)[O-])ccc4O)cnc3c12 | broth dilution | MIC | - | 500 µg/mL
Cc1ccc(Cn2cc(COC(=O)[C@@H](Cc3cn(Cc4ccc(C)cc4)nn3)NC(=O)OCc3ccccc3)nn2)cc1 | - | MIC | MTCC 281 | 9.8 µM
Cc1cc(Cl)[nH]c2ccc3c(=O)c(C(=O)NN=Cc4cc([N+](=O)[O-])ccc4O)cnc3c12 | broth dilution | MIC | - | 1000 µg/mL
Cn1c(=O)ccc2c3sc(N4CCN(c5ccc(F)cc5)CC4)nc3ccc21 | - | MIC100 | MTCC 282 | 62.5 µg/mL
Cc1ccc(Cn2cc(COC(=O)[C@@H](Cc3cn(Cc4ccc(C)cc4)nn3)NC(=O)OCC(C)(C)C)nn2)cc1 | - | MIC | MTCC 281 | 20.2 µM
Cc1ccc(C2C(Cl)C(=O)N2NC(=O)c2cnc3c(ccc4[nH]c(Cl)cc(C)c43)c2=O)cc1 | broth dilution | MIC | - | >1000 µg/mL
CC(C)S(=O)(=O)N1CCN(c2cnn(-c3cc(F)cc(F)c3)c(=O)c2OC2CCC(F)C2)CC1 | broth dilution | MIC | ND254 | 0.06 µg/mL
C=C1C(=O)OC2C1CC=C(C)C1CCC(=C)C12 | agar diffusion | MIC | MTCC 1344 | 125 µg/mL
CCOc1ccccc1N1COc2c(ccc3ccccc23)C1 | - | MIC | NCIM 545 | 15 µg/mL
O=C(N[C@H](Cc1cn(CCc2ccccc2)nn1)C(=O)OCc1cn(CCc2ccccc2)nn1)OCc1ccccc1 | - | MIC | MTCC 281 | 19.6 µM
COc1ccc(Br)cc1/C=N/NC(=O)Cc1ccccc1F | MTT | MIC | - | >150 µM
Cc1cc(Cl)[nH]c2ccc3c(=O)c(C(=O)NN4C(=O)C(Cl)C4c4ccc(Cl)cc4)cnc3c12 | broth dilution | MIC | - | 500 µg/mL
CCOc1ccc(NC(=O)CSc2nnc(-c3ccc4ncccc4c3)o2)cc1 | agar | MIC | - | 50 µg/mL
CC(=O)OC12CCC(C(=O)C1)C1C(=O)N(CCCCN3CCN(c4ccc(F)cc4)CC3)C(=O)C12 | broth dilution | MIC | DSM 1988 | >100 µM
COc1ccc(-c2n[nH]c(COc3ncnc4ccccc34)n2)cc1 | - | MIC100 | MTCC 282 | 6.25 µg/mL
Cc1nn(-c2ccccc2)c2c1C(c1cccc(Br)c1)C(C#N)=C(N)O2 | - | MIC | MTCC 282 | 250 µg/mL
CC1=C(Cl)C(O)=CC(=O)C12Oc1cc(O)c(Cl)c(C)c1C2=O | broth dilution | MIC | MTCC 282 | 100 µg/mL
FC(F)(F)c1nc(OCc2nc(-c3ccco3)n[nH]2)c2ccccc2n1 | - | MIC100 | MTCC 282 | 12.5 µg/mL
CC(=O)OC12CCC(C(=O)C1)C1C(=O)N(CCCCN3CCN(Cc4ccccc4)CC3)C(=O)C12 | broth dilution | MIC | DSM 1988 | >100 µM
O=C1OCC(c2cccs2)=C1c1ccc(OCC(O)(Cn2cncn2)c2ccc(F)cc2F)cc1 | broth dilution | MIC50 | ATCC 16404 | 8 µg/mL
O=C(NN1C(=O)/C(=C/c2cc3ccccc3nc2Cl)N=C1c1ccccc1)c1ccncc1 | broth dilution | MIC | MTCC 282 | 500 µg/mL
O=c1ccc2c(ccc3nc(N4CCN(c5cccc(Cl)c5Cl)CC4)sc32)o1 | - | MIC100 | MTCC 282 | 100 µg/mL
COC(=O)c1c(N)oc2c(C)c(C)c(O)c(Sc3cccc(C)c3)c12 | broth dilution | MIC | KCTC 1231 | 25 µg/mL
Cc1ccc(C)n1NC(=O)CC(C)Nc1ccccc1O | - | MIC | VKM F-1119 | 125 µg/mL
CCOc1ccc2nc(NC(=O)CSc3nnc(-c4ccc5ncccc5c4)o3)sc2c1 | agar | MIC | - | 25 µg/mL
COc1ccc(Br)cc1/C=N/NC(=O)Cc1cccc(Br)c1 | MTT | MIC | - | >150 µM
CCOC(=O)/C=C(/C)n1c2c(=O)c3ccccc3c(=O)c=2oc2ccccc21 | - | MIC | VKM F-1119 | 250 µg/mL
CCC(C)CC(C)CCCCCCCCC(=O)N[C@H]1C[C@@H](O)[C@H](NCCN)NC(=O)[C@@H]2[C@@H](O)CCN2C(=O)[C@H]([C@H](O)CCN)NC(=O)[C@H]([C@H](O)[C@@H](O)c2ccc(O)cc2)NC(=O)[C@@H]2C[C@@H](O)CN2C(=O)[C@H]([C@@H](C)O)NC1=O | broth dilution | MIC | ND254 | 0.125 µg/mL
COc1cc(/C=C2\SC(=S)NC2=O)cc(OC)c1OCC(O)(Cn1cncn1)c1ccc(F)cc1F | broth dilution | MIC50 | ATCC 16404 | 16 µg/mL
Cc1ccccc1Cn1cc(COC(=O)[C@@H](Cc2cn(Cc3ccccc3C)nn2)NC(=O)OCC(C)(C)C)nn1 | - | MIC | MTCC 281 | 10.1 µM
COc1ccc(N2CCN(c3nc4ccc5c(ccc(=O)n5C)c4s3)CC2)cc1 | - | MIC100 | MTCC 282 | 50 µg/mL
c1coc(-c2n[nH]c(COc3ncnc4ccccc34)n2)c1 | - | MIC100 | MTCC 282 | 6.25 µg/mL
Cc1cccc(Cn2cc(COC(=O)[C@@H](Cc3cn(Cc4cccc(C)c4)nn3)NC(=O)OCC(C)(C)C)nn2)c1 | - | MIC | MTCC 281 | 10.1 µM
CN(C)c1ccc(/C=C2/SC(=O)N(CC(=O)Nc3nc4ccc(SC#N)cc4s3)C2=O)cc1 | broth dilution / visual reading | MIC | MTCC 282 | 500 µg/mL
CC(C)(C)COC(=O)N[C@H](Cc1cn(Cc2ccccc2)nn1)C(=O)OCc1cn(Cc2ccccc2)nn1 | - | MIC | MTCC 281 | 10.6 µM
C[C@H]1[C@H](O)[C@@H](C)/C=C/C=C/C=C/C=C/C=C/C=C/C=C/[C@H](O[C@@H]2O[C@H](C)[C@@H](O)[C@H](N)[C@@H]2O)C[C@@H]2O[C@](O)(C[C@@H](O)C[C@@H](O)CC[C@H](O)[C@@H](O)C[C@@H](O)CC(=O)O[C@H]1C)C[C@H](O)[C@H]2C(=O)O | broth dilution | MIC | 16888 | 0.03 µg/mL
CC(=O)OC12CCC(C(=O)C1)C1C(=O)N(CCCCN3CCN(c4ncccn4)CC3)C(=O)C12 | broth dilution | MIC | DSM 1988 | >100 µM
Cc1nn(-c2ccccc2)c2c1C(c1cccc(Cl)c1)c1c(nc(=O)[nH]c1N)O2 | - | MIC | MTCC 282 | 1000 µg/mL
Cc1ccc(C2=C(c3ccc(OCC(O)(Cn4cncn4)c4ccc(F)cc4F)cc3)C(=O)OC2)cc1 | broth dilution | MIC50 | ATCC 16404 | 4 µg/mL
O=C(CSc1nnc(-c2ccc3ncccc3c2)o1)Nc1ccc(Br)cc1 | agar | MIC | - | 50 µg/mL
Cc1cc(Cl)[nH]c2ccc3c(=O)c(C(=O)NN=Cc4ccc(Cl)cc4)cnc3c12 | broth dilution | MIC | - | 250 µg/mL
COc1ccc(C[C@H](N)C(=O)N[C@H]2[C@@H](O)[C@H](n3cnc4c(N)ncnc43)O[C@@H]2C(=O)O)cc1 | - | MIC | - | >100 µg/mL
O=c1ccc2c(ccc3nc(N4CCN(c5ccccn5)CC4)sc32)o1 | - | MIC100 | MTCC 282 | 200 µg/mL
c1ccc(-c2n[nH]c(COc3ncnc4ccccc34)n2)cc1 | - | MIC100 | MTCC 282 | 12.5 µg/mL
Cn1c(=O)ccc2c3sc(N4CCN(c5ccccn5)CC4)nc3ccc21 | - | MIC100 | MTCC 282 | 100 µg/mL
Cc1nc(OCc2nc(-c3ccccc3)n[nH]2)c2ccccc2n1 | - | MIC100 | MTCC 282 | 12.5 µg/mL
CC(=O)OC12CCC(C(=O)C1)C1C(=O)N(CCCCN3CCN(c4ccccn4)CC3)C(=O)C12 | broth dilution | MIC | DSM 1988 | >100 µM
COc1ccc(Br)cc1/C=N/NC(=O)Cc1ccc(C)cc1 | MTT | MIC | - | >150 µM
O=C(O)Cc1ccc(OCC(O)(Cn2cncn2)c2ccc(F)cc2F)cc1 | broth dilution | MIC50 | ATCC 16404 | 128 µg/mL
O=C1C(Cl)=C(Oc2cccc(N3CC(C(=O)N/N=C/c4ccc(Br)cc4)CC3=O)c2)C(=O)c2ccccc21 | - | MIC | VCM F-1119 | 3.9 µg/mL
Cc1nc(OCc2nc(-c3ccc(Br)cc3)n[nH]2)c2ccccc2n1 | - | MIC100 | MTCC 282 | 12.5 µg/mL
C[C@H]1N(C(=O)c2ccc(C(F)(F)F)cc2)CCO[C@@]1(Cn1cncn1)c1ccc(F)cc1F | - | MIC | Isolate 2 | 50 µg/mL
O=c1ccc2c(ccc3nc(N4CCN(c5ncccn5)CC4)sc32)o1 | - | MIC100 | MTCC 282 | 100 µg/mL
CC(=O)Nc1ccc2nc(NC(=O)CSc3nnc(-c4ccc5ncccc5c4)o3)sc2c1 | agar | MIC | - | 12.5 µg/mL
CC(=O)CC(C)n1c2c(=O)c3ccccc3c(=O)c=2oc2ccccc21 | - | MIC | VKM F-1119 | 15.6 µg/mL
COc1ccc(N2COc3c(ccc4ccccc34)C2)cc1 | - | MIC | NCIM 545 | 25 µg/mL
COc1ccccc1C1C(Cl)C(=O)N1NC(=O)c1cnc2c(ccc3[nH]c(Cl)cc(C)c32)c1=O | broth dilution | MIC | - | >1000 µg/mL
O=C(N[C@H](Cc1cn(Cc2ccc([N+](=O)[O-])cc2)nn1)C(=O)OCc1cn(Cc2ccc([N+](=O)[O-])cc2)nn1)OCc1ccccc1 | - | MIC | MTCC 281 | 17.8 µM
O=c1ccc2c(ccc3nc(N4CCN(c5ccccc5F)CC4)sc32)o1 | - | MIC100 | MTCC 282 | 200 µg/mL
Cc1ccc(C2c3c(nc(=S)[nH]c3N)Oc3c2c(C)nn3-c2ccccc2)cc1 | - | MIC | MTCC 282 | >1000 µg/mL
C[C@H]1[C@H](O)[C@@H](C)/C=C/C=C/C=C/C=C/C=C/C=C/C=C/[C@H](O[C@@H]2O[C@H](C)[C@@H](O)[C@H](N)[C@@H]2O)C[C@@H]2O[C@](O)(C[C@@H](O)C[C@@H](O)CC[C@H](O)[C@@H](O)C[C@@H](O)CC(=O)O[C@H]1C)C[C@H](O)[C@H]2C(=O)O | broth dilution | MFC | ATCC 16404 | 4 µg/mL
COc1cc(/C=C2/SC(=O)NC2=O)ccc1O | broth dilution / visual reading | MIC | MTCC 282 | 100 µg/mL
CC(=O)OC12CCC(C(=O)C1)C1C(=O)N(CCCN3CCN(c4ccccc4)CC3)C(=O)C12 | broth dilution | MIC | DSM 1988 | >100 µM
O=C(CSc1nnc(-c2ccc3ncccc3c2)o1)Nc1ccc(Cl)cc1 | agar | MIC | - | 100 µg/mL
N#CSc1ccc2nc(NC(=O)CN3C(=O)S/C(=C/c4cccc(Oc5ccccc5)c4)C3=O)sc2c1 | broth dilution / visual reading | MIC | MTCC 282 | 1000 µg/mL
O=C(NN1C(=O)/C(=C/c2cc3ccccc3nc2Cl)N=C1c1ccccc1)c1cc(Cl)ccc1Cl | broth dilution | MIC | MTCC 282 | 500 µg/mL
Cc1ccccc1N1COc2c(ccc3ccccc23)C1 | - | MIC | NCIM 545 | 25 µg/mL
Cc1nn(-c2ccccc2)c2c1C(c1ccc(F)cc1)c1c(nc(=O)[nH]c1N)O2 | - | MIC | MTCC 282 | 500 µg/mL
COc1ccccc1N1CCN(CCCCN2C(=O)C3C4CCC(OC(C)=O)(CC4=O)C3C2=O)CC1 | broth dilution | MIC | DSM 1988 | >100 µM
O=C(NN1C(=O)/C(=C/c2cc3ccccc3nc2Cl)N=C1c1ccccc1)c1ccccc1 | broth dilution | MIC | MTCC 282 | 500 µg/mL
C[C@H]1[C@H](O)[C@@H](C)/C=C/C=C/C=C/C=C/C=C/C=C/C=C/[C@H](O[C@@H]2O[C@H](C)[C@@H](O)[C@H](N)[C@@H]2O)C[C@@H]2O[C@](O)(C[C@@H](O)C[C@@H](O)CC[C@H](O)[C@@H](O)C[C@@H](O)CC(=O)O[C@H]1C)C[C@H](O)[C@H]2C(=O)O | broth dilution / visual reading | MIC | - | 125 µg/mL
O=C1C(Cl)=C(Oc2cccc(N3CC(c4nnco4)CC3=O)c2)C(=O)c2ccccc21 | - | MIC | VCM F-1119 | 62.5 µg/mL
O=C(Nc1nc2ccccc2[nH]1)c1cn[nH]c1C(=O)c1ccc(Cl)cc1 | broth dilution | MIC | - | 0.625 µg/mL
Nc1[nH]c(=O)ncc1F | broth dilution | MIC | KCTC 1231 | 25 µg/mL
COc1ccc(C2c3c(nc(=O)[nH]c3N)Oc3c2c(C)nn3-c2ccccc2)cc1 | - | MIC | MTCC 282 | 250 µg/mL
CC(=Nc1cccc2cccc(N=C(C)c3c(O)ccc4c(C)cc(=O)oc34)c12)c1c(O)ccc2c(C)cc(=O)oc12 | - | MIC | MTCC 1881 | 15 µg/mL
CC(C)(C)COC(=O)N[C@H](Cc1cn(Cc2ccccc2[N+](=O)[O-])nn1)C(=O)OCc1cn(Cc2ccccc2[N+](=O)[O-])nn1 | - | MIC | MTCC 281 | 18.4 µM

The last 7 rows once more:

smiles,read by,read-out,strain or isolate,value
C[C@H]1[C@H](O)[C@@H](C)/C=C/C=C/C=C/C=C/C=C/C=C/C=C/[C@H](O[C@@H]2O[C@H](C)[C@@H](O)[C@H](N)[C@@H]2O)C[C@@H]2O[C@](O)(C[C@@H](O)C[C@@H](O)CC[C@H](O)[C@@H](O)C[C@@H](O)CC(=O)O[C@H]1C)C[C@H](O)[C@H]2C(=O)O,broth dilution / visual reading,MIC,-,125 µg/mL
O=C1C(Cl)=C(Oc2cccc(N3CC(c4nnco4)CC3=O)c2)C(=O)c2ccccc21,-,MIC,VCM F-1119,62.5 µg/mL
O=C(Nc1nc2ccccc2[nH]1)c1cn[nH]c1C(=O)c1ccc(Cl)cc1,broth dilution,MIC,-,0.625 µg/mL
Nc1[nH]c(=O)ncc1F,broth dilution,MIC,KCTC 1231,25 µg/mL
COc1ccc(C2c3c(nc(=O)[nH]c3N)Oc3c2c(C)nn3-c2ccccc2)cc1,-,MIC,MTCC 282,250 µg/mL
CC(=Nc1cccc2cccc(N=C(C)c3c(O)ccc4c(C)cc(=O)oc34)c12)c1c(O)ccc2c(C)cc(=O)oc12,-,MIC,MTCC 1881,15 µg/mL
CC(C)(C)COC(=O)N[C@H](Cc1cn(Cc2ccccc2[N+](=O)[O-])nn1)C(=O)OCc1cn(Cc2ccccc2[N+](=O)[O-])nn1,-,MIC,MTCC 281,18.4 µM